A mixed list of measured activities; the numbers were collected in NIAID ChemDB.

Shared fields: whole-cell or culture tests; agent: HIV-1; method: p24; read-out: EC50

Neighbouring rows are from separate reports. ECn is the concentration giving n% inhibition of infection, replication or growth. Two numbers with a dash give a range or band.

{"structure": "CC(C)CN(C[C@@H](O)[C@H](Cc1ccccc1)NC(=O)[C@H](CC(N)=O)NC(=O)c1ccc2ccccc2n1)C(=O)NC(C)(C)C", "strain or isolate": "NL4-3", "mutations": "PR-L10R L63P V82T", "cell line": "MT-4", "value": "<0.4 µM"}
{"structure": "Nc1nc(=O)n([C@@H]2CO[C@H](CO)S2)cc1F", "strain or isolate": "IIIB", "cell line": "U-937", "value": "0.6 µM"}
{"structure": "CCC[C@@]1(CCc2ccccc2)CC(O)=C([C@H](CC)c2cccc(NS(=O)(=O)c3ccc(C(F)(F)F)cn3)c2)C(=O)O1", "strain or isolate": "Isolate N. Amer 1", "cell line": "PBMC", "value": "<0.17 µM"}
{"structure": "Cc1cn([C@H]2C[C@H](N=[N+]=[N-])[C@@H](CO)O2)c(=O)[nH]c1=O", "strain or isolate": "IIIB", "cell line": "MT-4", "value": "0.03 µM"}
{"structure": "CCc1cc(NCc2nc3c(Cl)ccc(Cl)c3o2)c(=O)[nH]c1C", "strain or isolate": "NL4-3", "mutations": "RT-Y181C", "cell line": "MT-4", "value": ">3 µM"}
{"structure": "COC(=O)[C@H](C)NP(=O)(OC[C@@H]1C=C[C@H](n2cc(C)c(=O)[nH]c2=O)O1)Oc1ccc(Br)cc1", "strain or isolate": "C467-4 Clinical isolate ZDV-resistant", "mutations": "RT-K20R D67N K70R Y188L T215F K219Q", "cell line": "PBMC", "value": "0.042 µM"}
{"structure": "CC(C)[C@H](NC(=O)c1ccc2ccccc2n1)C(=O)N[C@@H](Cc1ccccc1)[C@H](O)CN1CC[C@@H](OCc2ccncc2)C[C@H]1C(=O)NC(C)(C)C", "strain or isolate": "Nevirapine-resistant", "cell line": "C8166", "value": "0.0014 µM"}
{"structure": "Nc1ncnc2c1ncn2CCOCP(=O)(O)O", "strain or isolate": "L74V(RT-L74V)", "mutations": "RT-L74V", "cell line": "MT-2", "value": "1.3 µM"}
{"structure": "C[C@@H](CNC(=S)Nc1ccc(Cl)cn1)C1CCCCC1", "strain or isolate": "IIIB", "cell line": "PBMC", "value": ">0.025 µM"}
{"structure": "CC(C)CN(C[C@@H](O)[C@H](Cc1ccccc1)NC(=O)O[C@H]1CCOC1)S(=O)(=O)c1ccc(N)cc1", "strain or isolate": "Clinical isolate", "mutations": "PR-L10I K14R R41K M46L I54V L63P A71V V82A L90M I93L", "cell line": "PBMC", "value": "0.16 µM"}
{"structure": "O=c1[nH]cnc2c1ncn2[C@H]1CC[C@@H](CO)O1", "strain or isolate": "Recombinant", "mutations": "RT-A62V", "cell line": "PBMC", "value": "0.3 µM"}
{"structure": "O=c1[nH]cnc2c1ncn2[C@H]1CC[C@@H](CO)O1", "strain or isolate": "GB8", "cell line": "JM", "value": "4.4 µM"}
{"structure": "CC(C)(C)NC(=O)[C@@H]1C[C@@H]2CCCC[C@@H]2CN1C[C@@H](O)[C@H](Cc1ccccc1)NC(=O)[C@H](CC(N)=O)NC(=O)c1ccc2ccccc2n1", "strain or isolate": "Clinical isolate", "mutations": "PR-L10I I15V K20R M36I M46L I54V K55R I62V L63P K70Q V82A L89M", "cell line": "PBMC", "value": "0.037 µM"}
{"structure": "Cc1csc(NC(=S)NC[C@H](C)c2ccccc2)n1", "strain or isolate": "IIIB", "cell line": "PBMC", "value": "0.055 µM"}
{"structure": "Nc1ccn([C@H]2CO[C@@H](CO)S2)c(=O)n1", "strain or isolate": "IIIB", "cell line": "Jurkat cells", "value": "3 µM"}
{"structure": "Cc1csc(NC(=S)N[C@H](C)c2ccccc2)n1", "strain or isolate": "NNRTI-resistant (RT Y181C K103N) A17V", "mutations": "RT-Y181C K103N", "cell line": "PBMC", "value": "0.196 µM"}
{"structure": "CC(=O)N1CCC(C(=O)N(CCCN2CCC(Cc3ccc(C(N)=O)cc3)CC2)c2ccc(C)c(Cl)c2)CC1", "strain or isolate": "JR-FL R5", "setting": "20% FBS", "cell line": "PBMC", "value": "0.00064 µM"}
{"structure": "Cc1c(O)cccc1C(=O)N[C@@H](CSc1ccccc1)[C@H](O)CN1C[C@H]2CCCC[C@H]2C[C@H]1C(=O)NC(C)(C)C", "strain or isolate": "NL4-3", "cell line": "MT-4", "value": "<0.025 µM"}
{"structure": "Nc1ccn([C@H]2CC[C@@H](CO)O2)c(=O)n1", "mutations": "RT-delta67 T69G", "cell line": "MT-2", "value": "0.083 µM"}
{"structure": "Cc1cn([C@H]2C[C@H](N=[N+]=[N-])[C@@H](CO)O2)c(=O)[nH]c1=O", "strain or isolate": "P119S(RT-P119S)", "mutations": "RT-P119S", "cell line": "MT-2", "value": "0.012 µM"}
{"structure": "CCO/N=C(\\c1ccc(Br)cc1)C1CCN(C2(C)CCN(C(=O)c3c(C)cc[n+]([O-])c3C)CC2)CC1", "strain or isolate": "JRFL R5 CLADE B", "cell line": "PBMC", "value": "0.00245 µM"}
{"structure": "CC(C)c1nc(CN(C)C(=O)N[C@H](C(=O)N[C@@H](Cc2ccccc2)C[C@H](O)[C@H](Cc2ccccc2)NC(=O)OCc2cncs2)C(C)C)cs1", "strain or isolate": "ERS104PRE(PR-L63P) Clinical isolate", "mutations": "PR-L63P", "cell line": "PBMC", "value": "0.044 µM"}
{"structure": "C[C@H](CNC(=S)Nc1ccc(Cl)cn1)C1CCCCC1", "strain or isolate": "IIIB", "cell line": "PBMC", "value": ">1 µM"}
{"structure": "Cc1cn([C@H]2C[C@H](N=[N+]=[N-])[C@@H](CO)O2)c(=O)[nH]c1=O", "strain or isolate": "NL-XM WT", "cell line": "PBMC", "value": "<0.12 µM"}
{"structure": "C[C@H](Cn1cnc2c(N)ncnc21)OCP(=O)(O)O", "strain or isolate": "1391-4 high AZT resistance (RT D67 K70 T215)", "mutations": "RT-D67 K70 T215", "cell line": "MT-2", "value": "0.5 µM"}
{"structure": "CN(C)c1ccc(-n2nnnc2SCC(=O)Nc2ccccc2Cl)cc1", "cell line": "MT-4", "value": "<10 µM"}
{"structure": "Cc1cn([C@H]2C[C@H](N=[N+]=[N-])[C@@H](CO)O2)c(=O)[nH]c1=O", "strain or isolate": "Recombinant", "mutations": "RT-M184V", "cell line": "PBMC", "value": "5–10 µM"}
{"structure": "CC(C)(C)NC(=O)[C@@H]1C[C@@H]2CCCC[C@@H]2CN1C[C@@H](O)[C@H](Cc1ccccc1)NC(=O)[C@H](CC(N)=O)NC(=O)c1ccc2ccccc2n1", "strain or isolate": "NL4-3-P22 (PR D30N A71V)", "mutations": "PR-D30N A71V", "cell line": "MT-4", "value": "<0.01 µM"}
{"structure": "Nc1ncnc2c1ncn2[C@@H]1O[C@H](CO)C[C@@H]1F", "strain or isolate": "P119S(RT-P119S)", "mutations": "RT-P119S", "cell line": "MT-2", "value": "23 µM"}
{"structure": "O=c1[nH]cnc2c1ncn2[C@H]1CC[C@@H](CO)O1", "strain or isolate": "8680 CLADE D CLADE D", "cell line": "PBMC", "value": "5.38 µM"}
{"structure": "Cc1cc(C)c(-n2nnnc2SCC(=O)Nc2cccc(F)c2C)c(C)c1", "cell line": "MT-4", "value": "<10 µM"}
{"structure": "COc1ccc(S(=O)(=O)N(CC(C)C)C[C@@H](O)[C@H](Cc2ccccc2)NC(=O)O[C@H]2CO[C@H]3OCC[C@H]32)cc1", "strain or isolate": "LAI Laboratory isolate", "cell line": "PBMC", "value": "0.0003 µM"}
{"structure": "COC(=O)[C@H](C)NP(=O)(OC[C@@H]1C=C[C@H](n2cc(C)c(=O)[nH]c2=O)O1)Oc1ccc(Br)cc1", "strain or isolate": "X267-1 NRTI resistant", "mutations": "RT-M41L L74V L210W T215Y", "cell line": "PBMC", "value": "0.0002 µM"}
{"structure": "S=C(NCCc1cccs1)Nc1ccc(Br)cn1", "strain or isolate": "G190-6 Clinical isolate NRTI-resistant", "mutations": "RT-M41L D67N K70R T215Y K219Q", "cell line": "PBMC", "value": "0.0005 µM"}
{"structure": "Cc1ccnc2c1NC(=O)c1cccnc1N2C1CC1", "mutations": "RT-T69G", "cell line": "MT-2", "value": "0.014 µM"}
{"structure": "O=c1[nH]cnc2c1ncn2[C@H]1CC[C@@H](CO)O1", "strain or isolate": "XM-Q151M", "mutations": "RT-A62V V75I F77C F116Y Q151M", "cell line": "MT-4", "value": "<54 µM"}
{"structure": "O=C(CSc1nnnn1-c1ccccc1Cl)Nc1ccccc1Cl", "cell line": "MT-4", "value": "<10 µM"}
{"structure": "O=c1[nH]cnc2c1ncn2[C@@H]1O[C@H](CO)C[C@@H]1F", "strain or isolate": "RT P119S L214F", "mutations": "RT-P119S L214F", "cell line": "MT-2", "value": "38 µM"}
{"structure": "C[C@@H](CNC(=S)Nc1ccc(Cl)cn1)c1ccccc1", "strain or isolate": "NNRTI-resistant (RT Y181C K103N) A17V", "mutations": "RT-Y181C K103N", "cell line": "PBMC", "value": "0.53 µM"}
{"structure": "Cc1cn([C@H]2C[C@H](N=[N+]=[N-])[C@@H](CO)O2)c(=O)[nH]c1=O", "strain or isolate": "126 3TC (RT-M184V)", "mutations": "RT-M184V", "cell line": "MT-4", "value": "0.04 µM"}
{"structure": "O=C1N(Cc2ccc(CO)cc2)[C@H](Cc2ccccc2)[C@H](O)[C@@H](O)[C@@H](Cc2ccccc2)N1Cc1ccc(CO)cc1", "strain or isolate": "A012B pre", "cell line": "PBMC", "value": "0.018 µM"}
{"structure": "CC(C)(C)NC(=O)[C@@H]1C[C@@H]2CCCC[C@@H]2CN1C[C@@H](O)[C@H](Cc1ccccc1)NC(=O)[C@H](CC(N)=O)NC(=O)c1ccc2ccccc2n1", "strain or isolate": "NL4-3", "mutations": "PR-L10R M46I V82T", "cell line": "MT-4", "value": "<0.025 µM"}
{"structure": "c1cc(CN2CCCNCCNCCCNCC2)ccc1CN1CCCNCCNCCCNCC1", "strain or isolate": "SW38 CLADE C R5", "cell line": "PBMC", "value": ">0.5 µM"}
{"structure": "Cc1cn([C@H]2C[C@H](N=[N+]=[N-])[C@@H](CO)O2)c(=O)[nH]c1=O", "strain or isolate": "C140 Clinical isolate ZDV-resistant", "mutations": "RT-M42L M184V T215Y", "cell line": "PBMC", "value": "0.1 µM"}
{"structure": "COc1ccc(NC(=O)CSc2nnnn2-c2c(C)cc(C)cc2C)c(C)c1", "cell line": "MT-4", "value": "<10 µM"}
{"structure": "Cc1cn([C@H]2C[C@H](N=[N+]=[N-])[C@@H](CO)O2)c(=O)[nH]c1=O", "strain or isolate": "G780-1 NRTI resistant", "mutations": "RT-M41L D67N K70R T215F K219Q", "cell line": "PBMC", "value": ">3.2 µM"}
{"structure": "O=c1c2ccccc2n2nnc3ccc(NCCCN4CCN(CCCNc5ccc6nnn7c8ccccc8c(=O)c5c67)CC4)c1c32", "strain or isolate": "CLADE A", "cell line": "PBL", "value": "0.0152 µM"}